Among the data in PubChem BioAssay AID485367 (National Center for Advancing Translational Sciences (NCATS), 2010) are activity, negative = inhibition values, retold here.

By UniProt entry, the sequences of proteins in these tests, tags left out.
UniProt O15648, whole entry: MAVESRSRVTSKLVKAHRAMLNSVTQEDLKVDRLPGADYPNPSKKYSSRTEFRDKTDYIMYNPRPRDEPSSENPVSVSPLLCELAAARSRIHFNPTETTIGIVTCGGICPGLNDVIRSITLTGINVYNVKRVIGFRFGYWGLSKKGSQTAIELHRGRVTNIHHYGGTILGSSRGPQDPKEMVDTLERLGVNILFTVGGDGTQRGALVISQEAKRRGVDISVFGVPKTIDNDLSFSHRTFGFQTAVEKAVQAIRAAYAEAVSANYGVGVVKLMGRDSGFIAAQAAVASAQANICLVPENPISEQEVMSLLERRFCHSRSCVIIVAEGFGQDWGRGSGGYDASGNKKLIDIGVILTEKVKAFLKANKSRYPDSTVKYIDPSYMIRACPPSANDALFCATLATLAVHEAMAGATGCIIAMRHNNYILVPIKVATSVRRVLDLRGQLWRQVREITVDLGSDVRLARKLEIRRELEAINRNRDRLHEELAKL

Each structure is given as a SMILES string. Only a part is listed here, and it is no random draw. Active and inactive are the calls of the source. Calls come from the whole dose curve; as a rule, active = well fitted inhibition curve with a large enough effect; inconclusive = small, poorly fitted or top-dose-only effect, or effect the other way; inactive = flat fitted curve, though single readings scatter.

This assay concerns the target ATP-dependent 6-phosphofructokinase (Trypanosoma brucei brucei) (UniProt O15648). Briefly: qHTS Assay to Find Inhibitors of T. brucei phosphofructokinase. Note: nearly all actives have a fitted effect of over 60% in size. Particulars: T. brucei PFK, ADP-Glo luminescence; at 57.5 µM (top of the series). The text has this: NIH Molecular Libraries Probe Production Network [MLPCN] NIH Chemical Genomics Center [NCGC] Grant: 1 R03 MH092153-01 PI Name: Malcolm Walkinshaw, University of Edinburgh NCGC Assay Overview: Various species of the protozoan family Trypanosomatidae are responsible for a range of serious human diseases in tropical and subtropical areas of the world. […] Many of the disorders caused by trypanosomatids are fatal if left untreated, but most currently used drugs are inefficient and toxic. […] Oxidative metabolism involving the mitochondrial tricarboxylic acid cycle and oxidative phosphorylation are repressed in these parasites, and recent RNA interference (RNAi) experiments have shown that even partial depletion of certain individual glycolytic enzymes can lead to the death of cultured parasites. One such glycolytic enzyme, phosphofructokinase (PFK), catalyzes the formation of fructose-1,6-bisphosphate (F1,6BP) and ADP from fructose-6-phosphate (F6P) and ATP, and in many metabolic circumstances makes an important contribution to the control of flux through the glycolytic pathway. As a specific glycolytic target, PFK is particularly attractive as it catalyzes the first irreversible step in glycolysis, and structural and kinetic studies have shown very substantial and essential differences from corresponding host enzymes, allowing for the discovery of parasite-selective inhibitors. The goal of this screen is to find small-molecule inhibitors of T. brucei PFK using a biochemical assay that measures PFK activity as a function of ADP production. A luminescence-based assay for T. brucei PFK activity has been developed which uses luciferase to detect production of ADP. Traditional luciferase-based nucleotide detection reagents rely on ATP production as a direct substrate for the luciferase reaction; however, PFK catalyzes the transfer of a phosphate from ATP to F6P, resulting in the net depletion of ATP. To directly measure the ADP product of the PFK reaction, we used the ADP-Glo detection kit (Promega), which utilizes two separate reactions to 1) deplete all remaining uncatalyzed ATP and 2) convert all remaining ADP to ATP, which is then detected through a traditional luciferase-coupled reaction. Compounds were screened as a concentration-titration series that ranged from 57 uM to 0.7 nM.
NCGC Assay Protocol Summary: NCGC Assay Protocol Summary: Substrate buffer was dispensed into white, solid 1536-well plates at 3uL/well in 0.1M triethanolamine (TEA) buffer, pH 8.0, containing final concentrations of 5 mM MgCl2, 0.01% Tween20, 0.5 mM fructose-6-phosphate (F6P) and 0.1mM ATP. Then, 23 nL of compounds or DMSO were delivered to each well using a pin tool. One uL T. brucei PFK (0.1M TEA, 0.01% Tween20, 0.1% bovine serum albumin (BSA) and 1.25nM PFK, final concentrations) was then dispensed, and plates were incubated at room temperature for 45 min. The luminescent detection reagent, ADP-Glo (Promega), was then added in two steps: the first reagent, ADP-Glo (which converts remaining uncatalyzed ATP), was added at 2.5uL/well and incubated for ten minutes at room temperature, and the second component, Kinase Detection reagent (which converts ADP to ATP as a substrate for luciferase-based luminescence), was added immediately after at 5uL/well, followed by one final ten minute room temperature incubation. The plates were measured on a ViewLux plate reader for luminescent signal using a clear filter with a one second exposure. The %Activity was determined from the corrected luminescence values. As no specific T. brucei PFK inhibitors have been identified in the literature, 1x (1.25nM) and 0x PFK enzyme controls (untreated) were included to normalize %Activity of identified inhibitors; 0x enzyme values corresponded to 100%Activity (full inhibition), while 1x PFK enzyme values were used to normalize 0%Activity (no inhibition). Concentration-response curves were fitted to the signals arising from the resulting luminescence. […]
As for `CC1=NCCc2c1[nH]c1ccccc21.O=[N+]([O-])c1cc([N+](=O)[O-])c(O)c([N+](=O)[O-])c1`, the activity, negative = inhibition was inactive: 3.22%. As for `Cc1ccc(C)c(NP(C)(=O)Oc2ccccc2)c1` (centres undefined), the activity, negative = inhibition is inactive: -7.64%.

As to `CP(=O)(Nc1cccc(Br)c1)Oc1ccccc1` (centres undefined), the activity, negative = inhibition was inactive: -2.5%. For the compound `Cc1cc(C)cc(OP(C)(=O)Nc2ccccn2)c1` (centres undefined), the activity, negative = inhibition is inactive: 1.84%. Then `CCOC(=O)c1ccc(NP(C)(=O)Oc2cc(C)cc(C)c2)cc1` (centres undefined), with inactive: -7.25%; and `Cc1cc(C)cc(OP(C)(=O)Nc2ccc(C)cc2C)c1` (centres undefined), with inactive: -0.571%. Then `COc1ccccc1OP(C)(=O)Nc1cccc(Br)c1` (centres undefined), with inactive: 0.771%. Turning to `Cc1nc2ccc3ccccc3c2s1.O=[N+]([O-])c1cc([N+](=O)[O-])c(O)c([N+](=O)[O-])c1`, the activity, negative = inhibition was inactive: -7.51%. For the compound `O=[N+]([O-])c1cc([N+](=O)[O-])c(-n2nnc3ccccc32)c([N+](=O)[O-])c1`, the activity, negative = inhibition was inactive: 3.61%. Regarding `CP(=O)(Nc1ccc(SC(F)(F)F)cc1)Oc1ccccc1` (centres undefined), the activity, negative = inhibition is inactive: 4.86%.

With `CCCOc1ccc(NP(C)(=O)Oc2ccc(Cl)cc2)cc1` (centres undefined), the activity, negative = inhibition is inactive: 1.8%. As to `CN1CCCCC1COC(=O)C1(O)c2ccccc2CCc2ccccc21` (centres undefined), the activity, negative = inhibition is inactive: -2.87%.

Consider `COc1ccccc1OP(C)(=O)Nc1c(C)cccc1C` (centres undefined), for which the activity, negative = inhibition is inactive: 3.25%. For the compound `O=[N+]([O-])c1cc([N+](=O)[O-])c(Nc2nnnn2CCO)c([N+](=O)[O-])c1`, the activity, negative = inhibition was inactive: 0.714%. Regarding `CC1=C2N=C(C=C3N=C(C(C)=C4[N-][C@@](C)([C@@H]5N=C1[C@](C)(CCC(=O)NC[C@@H](C)OP(=O)([O-])O[C@H]1[C@@H](O)[C@@H](n6cnc7cc(C)c(C)cc76)O[C@@H]1CO)[C@H]5CC(N)=O)[C@@](C)(CC(N)=O)[C@@H]4CCC(N)=O)[C@@](C)(CC(N)=O)[C@@H]3CCC(N)=O)C(C)(C)[C@@H]2CCC(N)=O.[C-]#N.[Co+3]`, the activity, negative = inhibition was inactive: -13.8%. As for `CP(=O)(Nc1ccccc1Br)Oc1ccccc1` (centres undefined), the activity, negative = inhibition is inactive: -1.93%. Then `COc1ccccc1OP(C)(=O)Nc1ccccc1` (centres undefined), with inactive: -6.39%; and `CP(=S)(Nn1cnnc1)Oc1ccccc1` (centres undefined), with inactive: 0.932%; and `CCOC(=O)c1ccc(NP(C)(=O)Oc2ccc(OC)cc2)cc1` (centres undefined), with inactive: -5.02%.

Regarding `CCOP(C)(=S)SCC(=O)NC(C)C(=O)O` (centres undefined), the activity, negative = inhibition was inactive: 7.07%.

Regarding `CCc1ccc(OP(C)(=O)N2CCN(c3ccc([N+](=O)[O-])cc3)CC2)cc1` (centres undefined), the activity, negative = inhibition was inactive: -2.44%. Then `CP(=O)(NC(=O)Nc1ccccc1)Oc1ccccc1` (centres undefined), with inactive: -3.6%; and `Cc1cc(C)cc(OP(C)(=O)Nc2ccc(SC(F)(F)F)cc2)c1` (centres undefined), with inactive: 0.0676%; and `CP(=O)(Nc1ccc(SC(F)(F)F)cc1)Oc1ccc(Cl)cc1` (centres undefined), with inactive: 1.02%.

As to `Cc1cccc(C)c1OP(C)(=O)Nc1ccc(SC(F)(F)F)cc1` (centres undefined), the activity, negative = inhibition was inactive: -3.52%. Turning to `CP(=O)(Oc1ccccc1)OC(c1ccccc1)C(F)(F)F` (centres undefined), the activity, negative = inhibition is inactive: -0.704%.

`CCN(CC)CCCOC(=O)C(O)(c1ccccc1)c1ccccc1`: the activity, negative = inhibition is inactive: 3.07%. In the case of `Cc1cc(C)cc(OP(C)(N)=O)c1` (centres undefined), the activity, negative = inhibition was inactive: 3.37%.

As to `COc1ccccc1OP(C)(=O)Nc1cc(Cl)ccc1C` (centres undefined), the activity, negative = inhibition is inactive: 0.582%. On to `COc1ccc(OP(C)(=O)Nc2cccc(F)c2)cc1` (centres undefined), for which the activity, negative = inhibition is inactive: 1.31%. For the compound `COc1ccccc1OP(C)(=O)Nc1ccc(C)cc1` (centres undefined), the activity, negative = inhibition was inactive: -0.691%. Turning to `Cc1ccc(NP(C)(=O)Oc2ccccc2)c(C)c1` (centres undefined), the activity, negative = inhibition is inactive: -14.6%. Take `CCOC(=O)c1ccc(NP(C)(=O)Oc2ccccc2)cc1` (centres undefined): the activity, negative = inhibition was inactive: 2.01%. `O=[N+]([O-])c1ccc2c(c1)C=Nc1ccccc1O2`: the activity, negative = inhibition is inactive: -1.31%. As to `CC(C)(C)c1ccc(OP(C)(=O)Nc2ccc(SC(F)(F)F)cc2)cc1` (centres undefined), the activity, negative = inhibition was inactive: 1.34%. Regarding `Cc1cccc(C)c1OP(C)(N)=O` (centres undefined), the activity, negative = inhibition was inactive: 8.09%.

On to `O=[N+]([O-])c1cc([N+](=O)[O-])c(Nc2cccnc2)c([N+](=O)[O-])c1`, for which the activity, negative = inhibition is inactive: -0.466%.

With `CP(=O)(OCCOc1ccccc1)OCCOc1ccccc1`, the activity, negative = inhibition is inactive: -6.07%. Take `CP(=O)(Nc1ccc(Cl)cc1Cl)Oc1ccccc1` (centres undefined): the activity, negative = inhibition was inactive: 0.814%. As to `Cc1nc2ccc3ccccc3c2o1.O=[N+]([O-])c1cc([N+](=O)[O-])c(O)c([N+](=O)[O-])c1`, the activity, negative = inhibition is inactive: -0.576%. For `COc1ccccc1OP(C)(=O)Nc1ccc(C)c(C)c1` (centres undefined), the activity, negative = inhibition was inactive: -0.218%. Then `COc1ccc(OP(C)(=O)Nc2ccccc2Br)cc1` (centres undefined), with inactive: -10.9%; and `Cc1cc(C)cc(OP(C)(=O)Nc2cccc(C(F)(F)F)c2)c1` (centres undefined), with inactive: 0.119%; and `CP(=O)(Nc1ccccn1)Oc1ccccc1` (centres undefined), with inactive: -14.1%. Regarding `COc1ccccc1OP(C)(=O)Nc1ccc(C)cc1C` (centres undefined), the activity, negative = inhibition was inactive: 1.02%. Take `CCc1ccc(OP(C)(=O)O)cc1`: the activity, negative = inhibition was inactive: 0.297%. Then `O=[N+]([O-])c1cc([N+](=O)[O-])c(Nc2ccccn2)c([N+](=O)[O-])c1`, with inactive: -5.99%; and `Cc1c(NP(C)(=O)Oc2ccc(C(C)C)cc2)c(=O)n(-c2ccccc2)n1C` (centres undefined), with inactive: -10.5%; and `COc1ccc(OP(C)(=O)Nc2ccccn2)cc1` (centres undefined), with inactive: 0.17%. Then `CN(C)CCOC(=O)C(O)(c1ccccc1)C1CCCC1` (centres undefined), with inactive: -0.667%; and `COc1ccccc1OP(C)(=O)Nc1ccc(Br)cc1` (centres undefined), with inactive: -2.6%; and `CN(C)C(=O)c1c([N+](=O)[O-])cc([N+](=O)[O-])cc1[N+](=O)[O-]`, with inactive: -6.34%. On to `CC(C)(C)c1ccc(OP(C)(=O)O)cc1`, for which the activity, negative = inhibition is inactive: 0.446%.

As to `COc1ccccc1OP(C)(=O)Nc1ccccc1Br` (centres undefined), the activity, negative = inhibition was inactive: 0.457%. For the compound `CP(=O)(Nc1ccc(Cl)cc1)Oc1ccc(F)cc1` (centres undefined), the activity, negative = inhibition is inactive: -5.23%. As for `COc1ccccc1OP(C)(=O)Nc1c(C)n(C)n(-c2ccccc2)c1=O` (centres undefined), the activity, negative = inhibition was inactive: -3.17%. Then `O=C(OCCCN1CCCC1)C(O)(c1ccccc1)C1CCCCC1` (centres undefined), with inactive: 0%; and `CP(=O)(Oc1ccccc1)N1CCOC1=O` (centres undefined), with inactive: 2.17%; and `CCc1ccc(OP(C)(=O)Nc2cccnc2)cc1` (centres undefined), with inactive: 0.357%. Then `CCN(CC)CC(O)COC(=O)C(O)(c1ccccc1)C1CCCCC1` (centres undefined), with inactive: 0.132%; and `COc1ccc(OP(C)(=O)Nc2ccc(Br)cc2)cc1` (centres undefined), with inactive: -0.239%; and `CCOC(=O)c1ccc(NP(C)(=O)Oc2ccc(Cl)cc2)cc1` (centres undefined), with inactive: -0.963%.

For the compound `CP(=O)(OC12CC3CC(CC(C3)C1)C2)OC12CC3CC(CC(C3)C1)C2`, the activity, negative = inhibition was inactive: 0.753%.

As for `O=[N+]([O-])c1ccc(OP2(=O)COCCO2)cc1` (centres undefined), the activity, negative = inhibition is inactive: -3.61%. For `Cc1cc(-c2cccc3ccccc23)c(C)cn1.O=[N+]([O-])c1cc([N+](=O)[O-])c(O)c([N+](=O)[O-])c1`, the activity, negative = inhibition is inactive: -2.44%. Then `CN(C)CCOC(=O)C(O)(c1ccccc1)C1CCCCC1` (centres undefined), with inactive: -0.886%.

With `COc1ccc(NP(C)(=O)Oc2ccccc2OC)cc1` (centres undefined), the activity, negative = inhibition is inactive: -0.329%.

Consider `COc1ccc(OP(C)(=O)Nc2cccc(Br)c2)cc1` (centres undefined), for which the activity, negative = inhibition was inactive: -2.65%. Consider `CP(=O)(Nc1ccc2c(c1)OCCO2)Oc1ccccc1` (centres undefined), for which the activity, negative = inhibition was inactive: 5.14%. Then `CCOP(C)(=S)SCC(=O)NC(C)(CC)C(=O)O` (centres undefined), with inactive: 0.925%; and `CP(=O)(Nc1ccc(SC(F)(F)F)cc1)Oc1ccc(F)cc1` (centres undefined), with inactive: -6.23%. With `O=C(OCCN1CCN(CCOCc2ccccc2)CC1)C(O)(c1ccccc1)c1ccccc1`, the activity, negative = inhibition was inactive: 5.94%.

`CP(=O)(Nc1ccccc1F)Oc1ccccc1` (centres undefined): the activity, negative = inhibition was inactive: -0.579%.

With `CC(C)c1ccc(OP(C)(=O)Nc2ccc(SC(F)(F)F)cc2)cc1` (centres undefined), the activity, negative = inhibition was inactive: -0.0522%. Then `CP(=O)(Nc1ccccc1)Oc1ccc(F)cc1` (centres undefined), with inactive: -1.92%; and `CCCCCOc1ccc(NP(C)(=O)Oc2ccc(Cl)cc2Cl)cc1` (centres undefined), with inactive: -4.01%; and `CCN(CC)CCCOC(=O)C(O)(c1ccccc1)C1CCCCC1` (centres undefined), with inactive: 2.63%. Consider `CCOC(=O)c1ccc(NP(C)(=O)Oc2ccc(F)cc2)cc1` (centres undefined), for which the activity, negative = inhibition is inactive: -0.144%. With `COc1ccc(OP(C)(=O)Nc2ccc(SC(F)(F)F)cc2)cc1` (centres undefined), the activity, negative = inhibition was inactive: -6.79%.
